Data taken from patent publication US5441983A, “Treatment of infection by enveloped virus with calix(N)arene compounds” (Genelabs Incorporated, priority 1992, dated 1995).

System: drug-resistant strains of HSV-1 and HSV-2
Assay: Inhibition of viral yield, drug-resistant versus wildtype strains (summary)
Details: ID90 comparison, in words

## Nc1nc2c(ncn2COCCO)c(=O)[nH]1 [ACV, acyclovir, reference compound]
  activity against drug-resistant strains compared with wildtype: significant resistance

## Nc1nc(O)c2ncn(COC(CO)CO)c2n1 [DHPG, ganciclovir]
  activity against drug-resistant strains compared with wildtype: significant resistance
